Experimental data published in patent publication US20120245079A1, “Treatment of Diseases Caused by Bacterial Exotoxins” (published 2012).

Target: toxic shock syndrome toxin-1 (TSST-1), Staphylococcus aureus peptide
Assay: method not told here; cited from Buonpane et al. 2005; soluble, other

D10 gave a Kd of 0.18 nM.
